# Kdimer by position in the HIV-1 leader RNA

From the data files of Ye et al. 2022, doi:10.1038/s41594-022-00746-2.

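Mutant RNA libraries with 1G, 2G or 3G starts, with or without cap, were folded at 37 °C for 30 min. Monomer and dimer bands were cut from native gels after folding in high salt (300 mM KCl, 5 mM MgCl2) or low salt (40 mM KCl, 0.1 mM MgCl2). Mutation frequencies in the two bands give Kdimer.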

RNA: 5' end of the HIV-1 NL4-3 genome, made in vitro. Positions 1-437 read:
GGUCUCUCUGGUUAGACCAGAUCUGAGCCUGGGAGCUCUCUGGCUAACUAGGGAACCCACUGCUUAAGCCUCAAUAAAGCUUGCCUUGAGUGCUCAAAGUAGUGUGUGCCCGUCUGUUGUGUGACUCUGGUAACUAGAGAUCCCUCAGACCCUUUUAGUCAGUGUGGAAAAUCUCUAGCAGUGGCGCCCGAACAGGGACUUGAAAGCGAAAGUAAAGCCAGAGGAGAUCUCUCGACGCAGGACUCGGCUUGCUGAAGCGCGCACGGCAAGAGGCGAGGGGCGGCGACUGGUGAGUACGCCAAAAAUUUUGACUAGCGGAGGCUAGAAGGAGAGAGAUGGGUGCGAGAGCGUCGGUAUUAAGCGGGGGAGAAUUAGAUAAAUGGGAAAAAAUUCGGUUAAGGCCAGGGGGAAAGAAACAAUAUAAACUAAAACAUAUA

Values are log2 Kdimer, the median over the changes at each position: higher means that changes there hinder dimer formation, below 0 that they favour it.
One numbering serves 1G, 2G and 3G.
A position is written with its base where known.

position | domain | 3G capped high-salt | 3G capped low-salt | 3G uncapped high-salt | 3G uncapped low-salt
A411 | none | 0.00 | 0.03 | 0.00 | 0.00
A412 | none | 0.06 | -0.03 | 0.04 | 0.09
G413 | none | 0.13 | 0.10 | 0.01 | -0.18
A414 | none | -0.02 | 0.02 | 0.08 | -0.03
A415 | none | 0.07 | 0.02 | 0.03 | 0.02
A416 | none | 0.04 | 0.13 | 0.09 | 0.25
C417 | none | -0.10 | 0.09 | 0.11 | 0.22
A418 | none | 0.13 | 0.16 | 0.14 | 0.02
A419 | none | -0.01 | 0.02 | 0.08 | -0.02
U420 | none | 0.02 | 0.13 | 0.01 | -0.01
A421 | none | 0.19 | 0.03 | 0.05 | 0.03
U422 | none | 0.00 | 0.06 | 0.00 | -0.07
A423 | none | 0.12 | 0.09 | 0.11 | 0.03
A424 | none | 0.02 | -0.03 | 0.13 | -0.05
A425 | none | 0.13 | 0.14 | 0.21 | 0.10
C426 | none | -0.09 | 0.07 | 0.07 | 0.00
U427 | none | 0.06 | -0.06 | 0.03 | 0.06
A428 | none | 0.01 | -0.01 | 0.07 | -0.09
A429 | none | 0.15 | -0.07 | 0.01 | -0.09
A430 | none | -0.05 | 0.03 | 0.01 | 0.01
A431 | none | 0.11 | 0.05 | 0.06 | -0.06
C432 | none | 0.22 | 0.07 | -0.11 | 0.10
A433 | none | -0.02 | 0.09 | 0.12 | -0.01
U434 | none | -0.17 | -0.15 | -0.03 | -0.15
A435 | none | -0.04 | 0.07 | 0.07 | 0.06
U436 | none | 0.00 | -0.14 | -0.05 | -0.14
A437 | none | 0.16 | 0.10 | 0.14 | -0.02
438 | none | -0.01 | -0.08 | -0.02 | -0.03
439 | none | 0.05 | 0.08 | 0.03 | -0.05
440 | none | 0.13 | 0.15 | 0.08 | 0.04
441 | none | -0.02 | -0.13 | 0.11 | 0.04
442 | none | 0.05 | 0.22 | 0.13 | 0.12
443 | none | 0.13 | 0.26 | 0.13 | 0.01
444 | none | 0.23 | 0.17 | 0.15 | 0.22

The first 2 entries again:

position	domain	3G capped high-salt	3G capped low-salt	3G uncapped high-salt	3G uncapped low-salt
A411	none	0.00	0.03	0.00	0.00
A412	none	0.06	-0.03	0.04	0.09

Bases beyond 437 are not listed in the source.